Measurements: US20030036564A1, “Control of lyme disease spirochete” (priority 2001, published 2003)

System: Borrelia burgdorferi strain B31
Test: Antibiotic bait diet fed no-choice for seven days to mice infected with Lyme disease spirochete; ear punch biopsy culture and dark field microscopy
Assay type: in vivo, laboratory mice (Swiss-Webster)
Conditions: for MEAN BAIT CONSUMPTION (G): seven consecutive days, infected mice
Description: The diet compositions described in Examples 1-3 were fed separately on a no-choice basis to separate groups of laboratory mice (Swiss-Webster) infected with the Lyme disease spirochete Borrelia burgdorferi. […]. The mice had all been previously infected with B. burgdorferi strain B31 by subcutaneous injection followed by a minimum 21-day incubation period. To confirm that the mice were positive for the spirochete, a modified ear punch biopsy was performed (Sinsky and Piesman, 1989, J. of Clin. Micro. 27:1723-1727, CDC 1997) on each mouse and the biopsy incubated in a modified BSK-H media for 7 days and viewed under dark field microscopy. The prepared diets were fed to individually housed mice on a no-choice basis and water was offered ad libitum. Consumption was recorded each day and additional feed was added. Diet was presented to the mice for seven consecutive days. On the day following the last day feed was offered, mice were anesthetized with Halothane and ear punch biopsy was performed. The biopsies were incubated in modified BSK-H media for seven days at 34±1° C. Dark field microscopy was then performed on an American Optics 1031 microscope with an American Optics dark field 1096 condenser to determine the presence of spirochetes. Cultures were considered positive if spirochete growth occurred within five weeks of inoculation (Wilske and Preac-Mursic, Aspects of Lyme Borreliosis, Springer-Verlag, New York 1993), viewing the cultures at seven-day increments. A slide was considered negative if no spirochetes were found after searching 100 fields at 400× (Ginsberg and Ewing, J. of Med. Entomology, 26: 183-189, 1989).

Row | Structure (SMILES) | MEAN BAIT CONSUMPTION (G) (Treatment level 1, chloramphenicol 500 μg/g bait) | MEAN BAIT CONSUMPTION (G) (Treatment level 2, chloramphenicol 1000 μg/g bait) | MEAN BAIT CONSUMPTION (G) (Treatment level 3, thiamphenicol 1000 μg/g bait) | MEAN THIAMPHENICOL INTAKE PER DAY (Treatment level 3, thiamphenicol 1000 μg/g bait, seven days)
1 | O=C(N[C@H](CO)[C@H](O)c1ccc([N+](=O)[O-])cc1)C(Cl)Cl [CHLORAMPHENICOL, chloramphenicol] | 41.3 ± 4.3 G | 42.2 ± 5.5 G |  | 
2 | CS(=O)(=O)c1ccc([C@@H](O)[C@@H](CO)NC(=O)C(Cl)Cl)cc1 [THIAMPHENICOL, thiamphenicol] |  |  | 39.9 ± 20.3 G | 2.9 ± 1.4 mg
